The target of the assay is DC4-2.J41.gp41(BG505) Env (HIV-1 clade C, strain 4-2.J41 | HIV-1 clade A, strain BG505).

As for “soluble CD4 (from UniProt P01730 26-396) (receptor)”, the IP with 447-52D or 17b and Western blot after incubation with sCD4 (1x, 5x, 20x molar): excess of sCD4 needed to expose V3 and bridging sheet epitopes amounted to 20 M excess.
